Results as given in patent publication US5773573A (priority 1994, dated 1998).

Assay: general procedure: Boc solid-phase peptide synthesis; Boc-aminoacid-OCH2 pam resin; HBTU/DIEA
Settings: whole synthesis, reverse-phase HPLC or automatic Edman sequencing, scale of the general procedure 0.05 mmole

## PEPTIDE1{T.E.K.K.R.R.E.T.V.E.R.E.K.E}$$$$V2.0
  final HPLC purity: over 99%

Some peptides are written in HELM: one residue between dots, names in brackets for other building blocks, links after the first $.
